T1: bioHA331, N-terminal biotinylated derivative of HA331 (Influenza A virus H5N1, strain not …, biotin on the N-terminus)
T1 chain: TGLRNSPQRERRRRKKR

T2: HA331, peptide for the H5N1 hemagglutinin cleavage site (Influenza A virus H5N1, strain not …)
T2 chain: CTGLRNSPQRERRRRKKR

T3: Pep11-2 (Influenza A virus H5N1, strain not …, PEG2 between the N-terminal C and T, as printed C(PEG2)T)
T3 chain: TGLRNSPQRERRRKKR


Assays:
[1] = target: T1, bioHA331, N-terminal biotinylated …; assay: SPR
[2] = target: T4, recombinant A/Vietnam/1194/2004 H5N1 HA (Influenza A virus A/Vietnam/1194/2004 …, UniProt A5A5M5, strain); assay: SPR
[3] = target: T2, HA331, peptide for the H5N1 …; assay: SPR; XPR36 (Bio-Rad), 25°C; peptide immobilised, purified Fab as analyte
Pep11-2 = target: T3, Pep11-2; assay: as above
[4] = target: T4, recombinant A/Vietnam/1194/2004 H5N1 HA; assay: ELISA

Binder	Kd [1] [nM]	Kd [2] [nM]	Kd [3] [nM]	Kd (Pep11-2) [nM]	binding result [4]
A3 soluble Fab fragment (Fab, V domains shown) VH: QVTLKESGPGILKPSQTLSLTCSFSGFSLSTSGMGVGWIRQSSGKGLEWLANIWWDDDKYYNPSLKSQLTISKDTSRNQVFLKITSVDTADTATYYCARRGEYDAMDYWGQGTSVTVSS VL: DIVLTQSPASLAVSPGQRATIFCKASQSVVYDGDSYMNWYQQKPGQPPKLLIYAASNLESGIPARFSGSGSGTDFTLNIHPVEEEDAATYYCQQSSEDPWTFGGGTKLEIK	7.39	76.1	0.8	2.31	
A4 soluble Fab fragment (Fab, V domains shown) VH: QVTLKESGPGILKPSQTLSLTCSFSGFSLSTSGMGVGWIRQPSGKGLEWLANIWWDDDKYYNPSLKSQLTISKDTSRNQVFLKITSVDTADTATYYCARRGKYDSMDYWGQGTSVTVSS VL: DIVLTQSPASLAMSLGQRATISCKASQSVVYDGDSYMNWYQQKPGQPPKLLIYAASNLESGIPARFSGSGSGTDFTLNIHPVEEEDAATYYCQQSSEDPWTFGGGTKLEIK	24.3	68.9	2.59	5.03	
A3 Fab displayed on phage (Fab, V domains shown, also called clone A3; Fab-phage A3; source: E. coli TG-1 with helper phage KM13, phage PEG-precipitated) VH: QVTLKESGPGILKPSQTLSLTCSFSGFSLSTSGMGVGWIRQSSGKGLEWLANIWWDDDKYYNPSLKSQLTISKDTSRNQVFLKITSVDTADTATYYCARRGEYDAMDYWGQGTSVTVSS VL: DIVLTQSPASLAVSPGQRATIFCKASQSVVYDGDSYMNWYQQKPGQPPKLLIYAASNLESGIPARFSGSGSGTDFTLNIHPVEEEDAATYYCQQSSEDPWTFGGGTKLEIK					binds
D4 soluble Fab fragment (Fab, V domains shown) VH: QVTLKESGPGILKPSQTLSLTCSFSGFSLNTSGMGVGWIRQPSGKGLEWLANIWWDDDKYYNPSLKSHLTISKDTSGNQVFLKITSVDTADSATYYCARRGDYDSLDYWGQGTSVTVSS VL: DIVLTQSPGSLSVSLGQRATISCKASQSVDYDGDSYMNWYQQKPGQPPKLLIYAASNLESGIPARFSGSGSGTDFTLNIHPVEEEDAATYYCQQSSEDPWTFGGGTKLEIK	7.54	35.9	0.47	1.62	
A4 Fab displayed on phage (Fab, V domains shown, also called clone A4; Fab-phage A4; source: E. coli TG-1 with helper phage KM13, phage PEG-precipitated) VH: QVTLKESGPGILKPSQTLSLTCSFSGFSLSTSGMGVGWIRQPSGKGLEWLANIWWDDDKYYNPSLKSQLTISKDTSRNQVFLKITSVDTADTATYYCARRGKYDSMDYWGQGTSVTVSS VL: DIVLTQSPASLAMSLGQRATISCKASQSVVYDGDSYMNWYQQKPGQPPKLLIYAASNLESGIPARFSGSGSGTDFTLNIHPVEEEDAATYYCQQSSEDPWTFGGGTKLEIK					binds
D8 soluble Fab fragment (Fab, V domains shown) VH: QVTLKESGPGILKPSQTLSLTCSFSGFSLSTPGMGVGWIRQPSGKGLEWLANIWWDDDKYYNPSLKSQLTISKDTSRNQVFLKITSVDTTDTATYYCARRGNYDAMDYWGQGTSVTVSS VL: DIVLTQSPASLAMSLGQRATISCKASQSVVYDGDSYMNWYQQKPGQPPKLLIYAASNLESGIPARFSGSGSGTDFTLNIHPVEEEDAATYYCQQSSEDPWTFGGGTKLEIK	35	49.3	2.54	5.74	
D4 Fab displayed on phage (Fab, V domains shown, also called clone D4; Fab-phage D4; source: E. coli TG-1 with helper phage KM13, phage PEG-precipitated) VH: QVTLKESGPGILKPSQTLSLTCSFSGFSLNTSGMGVGWIRQPSGKGLEWLANIWWDDDKYYNPSLKSHLTISKDTSGNQVFLKITSVDTADSATYYCARRGDYDSLDYWGQGTSVTVSS VL: DIVLTQSPGSLSVSLGQRATISCKASQSVDYDGDSYMNWYQQKPGQPPKLLIYAASNLESGIPARFSGSGSGTDFTLNIHPVEEEDAATYYCQQSSEDPWTFGGGTKLEIK					binds
D8 Fab displayed on phage (Fab, V domains shown, also called clone D8; Fab-phage D8; source: E. coli TG-1 with helper phage KM13, phage PEG-precipitated) VH: QVTLKESGPGILKPSQTLSLTCSFSGFSLSTPGMGVGWIRQPSGKGLEWLANIWWDDDKYYNPSLKSQLTISKDTSRNQVFLKITSVDTTDTATYYCARRGNYDAMDYWGQGTSVTVSS VL: DIVLTQSPASLAMSLGQRATISCKASQSVVYDGDSYMNWYQQKPGQPPKLLIYAASNLESGIPARFSGSGSGTDFTLNIHPVEEEDAATYYCQQSSEDPWTFGGGTKLEIK					binds
